Compound potency records, mixed from different reports. Data source: NIAID ChemDB in PubChem.

All rows: growth or infection tests; agent: HIV-1; read by: cytopathic effect; measure: EC50

ECn: concentration that inhibits the pathogen or its effect by n%. Conditions beyond the fields shown may differ between rows. Blank or dashed fields: not listed here.

smiles | strain | cells | mutations | result
CC(C)OP(=O)(COC[C@H]1C[C@@]1(c1ccccc1)n1ccc(=O)[nH]c1=O)OC(C)C | - | MT-4 | - | 50.7 µM
Nc1nc2c(ncn2CC(OCCF)OCP(=O)(O)O)c(=O)[nH]1 | - | CEM | - | 33.3 µg/mL
Cc1cn([C@H]2C[C@H](N=[N+]=[N-])[C@@H](CO)O2)c(=O)[nH]c1=O | LAV-1 | CEM | - | 0.005 µM
Cc1cn([C@]2(c3ccccc3)C[C@@H]2CO)c(=O)[nH]c1=O | - | MT-4 | - | 80.2 µM
CN(C)C(=O)c1cnnn1[C@@H]1O[C@H](CO[Si](C)(C)C(C)(C)C)C2(OS(=O)(=O)C=C2N)[C@H]1O[Si](C)(C)C(C)(C)C | IIIB | CEM | - | 0.12 µM
COc1ccc2c(c1)N(C(=O)OC(C)C)[C@@H](CSC)C(=S)N2 | - | MT-4 | - | 0.001 µM
COC(=O)c1cc(C(O)(c2ccc(O)c(C(=O)OC)c2)c2ccc(O)c(C(=O)OC)c2)ccc1O | - | CEM | - | >160 µM
CC(C)=CCN1Cc2cc(Cl)cc3[nH]c(=S)n(c23)C[C@@H]1C | IIIB | C8166 | - | 0.031 µg/mL
CNc1ccc2c(C)nc(CCCCCCC(=O)c3ccccc3)n2n1 | RF | MT-4 | - | >25 µM
C[C@H](Cn1cnc2c(N)ncnc21)OCP(=O)(O)O | IIIB | MT-4 | - | 3.35 µM
Nc1ccn([C@H]2CC[C@@H](CO)O2)c(=O)n1 | LAV | ATH8 | - | <0.5 µM
C[C@H](NC[C@H](CCCN=C(N)N)NC(=O)[C@H](CCCN=C(N)N)NC(=O)c1ccc(F)cc1)c1cccc2ccccc12 | - | MT-4 | - | 11 µM
O=c1ccn([C@H]2C[C@H](F)[C@@H](CO)O2)c(=O)[nH]1 | IIIB | MT-4 | - | 0.06 µM
COc1ccc2c(C)nc(CCCCCCC(=O)c3ccccc3)n2n1 | RF | MT-4 | - | 9.3 µM
Fc1cccc(Cl)c1C1SCc2nc3ccccc3n21 | - | MT-4 | - | 0.407 µM
O=c1[nH]cnc2c1ncn2[C@H]1CC[C@@H](CO)O1 | LAV | ATH8 | - | <10 µM
CC(C)=CCN1Cc2cc(Cl)cc3[nH]c(=S)n(c23)CC1C | - | MT-4 | - | 0.003 µM
CC(C)=CCN1Cc2cc(Cl)cc3[nH]c(=O)n(c23)C[C@@H]1C | Recombinant | MT-4 | RT-P225H | 0.165 µM
Nc1ncnc2c1ncn2[C@H]1CC[C@@H](CO)O1 | IIIB | CEM + CEM-SS | - | 0.54 µM
Nc1nc(=O)n(C=C=CCO)cc1F | - | PHA-PBM + PBM | - | 3.8 µM
CC1=C(C(=O)N(C)c2ccc(Cl)c(C(=O)OC(C)C)c2)SCCO1 | RF | CEM + CEM-SS | - | >100 µM
NC(=O)c1ncn([C@@H]2O[C@H](CO)[C@@H](O)[C@H]2O)n1 | IIIB | MT-4 | - | >3.3 µM
C[C@H](N[C@@H](CCCN=C(N)N)C(=O)N[C@@H](CCCN=C(N)N)C(=O)c1ccc(F)cc1)c1cccc2ccccc12 | - | MT-4 | - | 61 µM
Nc1nc(=O)n([C@@H]2CS[C@H](CO)O2)cc1F | IIIB | CEM | - | 0.1 µM
Cc1c(Sc2ccccc2)n(COCCO)c(=O)[nH]c1=O | - | MT-4 | - | 7 µM
CC(C)OP(=O)(COC[C@H]1C[C@@]1(c1ccccc1)n1cnc2c(N)ncnc21)OC(C)C | - | MT-4 | - | >100 µM
C=C(C)CN1Cc2cccc3[nH]c(=S)n(c23)CC1C | - | MT-4 | - | 0.014 µM
Cc1nc(CCCCCCC(=O)c2ccccc2)n2ncccc12 | RF | MT-4 | - | 0.59 µM
OC[C@H]1O[C@@H](n2cnc3c2NC=NC[C@H]3O)C[C@@H]1O | - | ATH8 | - | >0.05 µM
Cc1nc(CCCCCCC(=O)c2ccccc2)n2nc(-n3nccn3)ccc12 | RF | MT-4 | - | >260 µM
CC(C)(C)[Si](C)(C)OCC1OC(n2nncc2C(=O)NC2CCCC2)C(O[Si](C)(C)C(C)(C)C)C12OS(=O)(=O)C=C2N | IIIB | CEM | - | 0.16 µM
C[C@H](NC(=O)[C@H](CCCN=C(N)N)NC(=O)[C@@H](N)CCCN=C(N)N)c1cccc2ccccc12 | - | MT-4 | - | >100 µM
Nc1ccn([C@H]2C[C@@H](OCP(=O)(O)O)CO2)c(=O)n1 | IIIB | MT-4 | - | >321 µM
Cc1ccnc(N2C(=O)CSC2c2c(F)cccc2F)n1 | IIIB | MT-4 | - | 0.39 µM
Cc1c(SC2CCCCC2)n(COCCO)c(=O)[nH]c1=O | - | MT-4 | - | 7.7 µM
COC(=O)N[C@H](C(=O)N[C@@H](Cc1ccccc1)[C@@H](O)CN(Cc1ccc(-c2ccccn2)cc1)NC(=O)[C@@H](NC(=O)OC)C(C)(C)C)C(C)(C)C | HXB2 | MT-2 | - | 0.0027 µM
CC1=C(CCC(=O)O)c2cc3nc(cc4[nH]c(cc5[nH]c(cc1n2)c(C)c5C(COC(=O)B([B]C1[B][B][B][B]1)C1[B][B][B][B]1)OC(=O)B([B]C1[B][B][B][B]1)C1[B][B][B][B]1)c(C)c4C(COC(=O)B([B]C1[B][B][B][B]1)C1[B][B][B][B]1)OC(=O)B([B]C1[B][B][B][B]1)C1[B][B][B][B]1)C(C)=C3CCC(=O)O | IIIB | MT-2 | - | 0.22 ± 0.09 µM
Cc1ccnc2c1NC(=O)c1cccnc1N2C1CC1 | - | CEM | RT-Y188H | >15 µM
NC(N)=NCCC[C@H](NC(=O)[C@@H](N)Cc1ccc2ccccc2c1)C(=O)C1CCN(C(=O)c2ccc(F)cc2)CC1 | - | MT-4 | - | 7.7 µM
COC(=O)[C@H](C)OP(=O)(OC[C@@H]1C=C[C@H](n2cc(C)c(=O)[nH]c2=O)O1)Oc1ccccc1 | IIIB | CEM | - | 40 µM
O=c1[nH]cnc2c1ncn2[C@H]1CC[C@@H](CO)O1 | IIIB | MT-4 | - | 11 µM
CC(C)OP(=O)(COC[C@H]1C[C@@]1(c1ccccc1)n1ccc(N)nc1=O)OC(C)C | - | MT-4 | - | >100 µM
Fc1cccc(F)c1C1SCc2nc3ccccc3n21 | IIIB | CEM | - | 1.39 µM
CCNC(=O)[C@@H](NC(=O)Cc1ccccc1)[C@@H]1N[C@@H](C(=O)NCCNC(=O)[C@@H]2N[C@@H]([C@H](NC(=O)Cc3ccccc3)C(=O)NCC)SC2(C)C)C(C)(C)S1 | RF | MT-4 | - | 5.4 µM
CC(C)(C)[Si](C)(C)OCC1OC(n2nncc2C(=O)NC2CC2)C(O[Si](C)(C)C(C)(C)C)C12OS(=O)(=O)C=C2N | IIIB | MT-4 | - | 0.19 µM
Nc1ncnc2c1ncn2CCOCP(=O)(O)O | IIIB | MT-4 | - | 5.5 µM
CC(C)=CCN1Cc2cccc3[nH]c(=O)n(c23)CC1C | - | MT-4 | - | 3.981 µM
CC(C)(C)[Si](C)(C)OCC1OC(n2nncc2C(=O)N2CCC2)C(O[Si](C)(C)C(C)(C)C)C12OS(=O)(=O)C=C2N | IIIB | CEM | - | 0.08 µM
CCc1c(Sc2ccccc2)n(COCc2ccccc2)c(=O)[nH]c1=O | - | MT-4 | - | 0.0049 µM
COc1cc(C)nc(N2C(=O)CSC2c2c(Cl)cccc2Cl)n1 | IIIB | MT-4 | - | 0.024 µM
Cc1nc(CCCCCCC(=O)c2ccccc2)n2nc(-n3cccc3)ccc12 | RF | MT-4 | - | 0.02 µM
NC(N)=NCCC[C@H](NC(=O)[C@@H](N)Cc1ccc2ccccc2c1)C(=O)N[C@@H](CCCN=C(N)N)C(=O)Oc1ccc(F)cc1 | - | MT-4 | - | 45 µM
CC1=C(CCC(=O)O)c2cc3nc(cc4[nH]c(cc5[nH]c(cc1n2)c(C)c5C(COC(=O)c1ccc(N(C)C)cc1)OC(=O)c1ccc(N(C)C)cc1)c(C)c4C(COC(=O)c1ccc(N(C)C)cc1)OC(=O)c1ccc(N(C)C)cc1)C(C)=C3CCC(=O)O | IIIB | MT-2 | - | 6.64 ± 3.02 µM
O=c1ccn([C@H]2C[C@@H](OCP(=O)(O)O)CO2)c(=O)[nH]1 | IIIB | MT-4 | - | >336 µM
Cc1cn([C@H]2C[C@H](N=[N+]=[N-])[C@@H](COP(=O)(O)OC[C@@H]3O[C@H](n4cnc(C(N)=O)n4)[C@@H](O)[C@H]3O)O2)c(=O)[nH]c1=O | IIIB | MT-4 | - | 0.004 µM
CC(C)=CCOc1cc(NC(=S)c2ccoc2C)ccc1Cl | HE | MOLT | - | 0.008 µg/mL
CC(C)=CCN1Cc2c(F)ccc3[nH]c(=S)n(c23)CC1C | - | MT-4 | - | 0.006 µM
CCOCn1c(Cc2ccccc2)c(C(C)C)c(=O)[nH]c1=O | Recombinant | MT-4 | RT-P225H | 0.046 µM
O=[N+]([O-])c1ccc(Cl)c(C2SCc3nc4ccccc4n32)c1 | - | MT-4 | - | 7.586 µM
Cc1cc(C(O)(c2cc(C)c(O)c(C(=O)O)c2)c2cc(C)c(O)c(C(=O)O)c2)cc(C(=O)O)c1O | - | CEM | - | >200 µM
CCc1c(Sc2cc(C)cc(C)c2)n(COCCOP(=O)(O)OC[C@H]2O[C@@H](n3cc(C)c(=O)[nH]c3=O)C[C@@H]2N=[N+]=[N-])c(=O)[nH]c1=O | IIIB | MT-4 | - | 0.002 µM
Cc1occc1C(=S)Nc1ccc(Cl)c(/C=N/OC(C)(C)C)c1 | IIIB | CEM | RT-Y181C | 0.03 µg/mL
C[C@H](NC(=O)[C@H](CCCN=C(N)N)NC[C@H](CCCN=C(N)N)NC(=O)c1ccc(F)cc1)c1cccc2ccccc12 | - | MT-4 | - | 1.7 µM
O=c1[nH]c2ccc(Cl)cc2n1Cc1c(F)cccc1F | - | CEM | RT-Y188H | >20 µM
Cc1c(Sc2ccccc2)n(COCc2ccccc2)c(=O)[nH]c1=O | - | MT-4 | - | 0.093 µM
Cc1cn([C@@H]2OC[C@H](OCP(=O)(O)O)[C@H]2O)c(=O)[nH]c1=O | IIIB | MT-4 | - | >328 µM

Repeating the final 3 entries:

O=c1[nH]c2ccc(Cl)cc2n1Cc1c(F)cccc1F ; cells: CEM ; mutations: RT-Y188H ; result: >20 µM
Cc1c(Sc2ccccc2)n(COCc2ccccc2)c(=O)[nH]c1=O ; cells: MT-4 ; result: 0.093 µM
Cc1cn([C@@H]2OC[C@H](OCP(=O)(O)O)[C@H]2O)c(=O)[nH]c1=O ; strain: IIIB ; cells: MT-4 ; result: >328 µM